Test results reported in article PMC10060530, “Molecular determinants of μ-conotoxin KIIIA interaction with the human voltage-gated sodium channel NaV1.7” (2023).

What was measured:
Assay in all cases: whole-cell voltage clamp (kinetics of block of Na+ current)
hNaV1.7 D923A (human) = target: hNaV1.7 D923A (human)
hNaV1.7 E919Q (human) = target: hNaV1.7 E919Q (human)
hNaV1.7 N365A (human) = target: hNaV1.7 N365A (human)
hNaV1.7 Y362C (human) = target: hNaV1.7 Y362C (human)

μ-Conotoxin KIIIA (from UniProt P0C195 5-22) (peptide)
Kd (hNaV1.7 D923A (human)): 2340 nM | koff (hNaV1.7 D923A (human)): 0.00322 s⁻¹ | kon (hNaV1.7 D923A (human)): 1380 M⁻¹ s⁻¹ | Kd (hNaV1.7 E919Q (human)): 2510 nM | koff (hNaV1.7 E919Q (human)): 0.00168 s⁻¹ | kon (hNaV1.7 E919Q (human)): 667 M⁻¹ s⁻¹ | kon (hNaV1.7 N365A (human)): 1700 M⁻¹ s⁻¹ | Kd (hNaV1.7 Y362C (human)): 436 nM | koff (hNaV1.7 Y362C (human)): 0.000733 s⁻¹ | kon (hNaV1.7 Y362C (human)): 1680 M⁻¹ s⁻¹
